The results in this text go back to patent US10836796B2, “Derivatives of amanita toxins and their conjugation to a cell binding molecule” (Hangzhou DAC Biotech Co., Ltd., priority 2016, dated 2020).

As usually defined, the IC50 is the concentration that inhibits the measured activity by half.

In the assay the test system is NCI-N87, a human gastric carcinoma cell line. Briefly: In vitro cytotoxicity evaluation (MTT assay). Particulars: NCI-N87 cells, 120 hours incubation, read-out: N87 cell (Ag+) IC50. The assay is classed as cell-based. On the technique in general: Formazan colour is commonly taken as a measure of viable cells.

As for “T-DM1: Trastuzumab-DM1, antibody conjugated with maytansine derivative DM1; comparator conjugate [reference compound]”, the IC50 was determined as 0.19 nM.
